Compound potency records, mixed from different reports. Data source: NIAID ChemDB in PubChem.

Common to all: whole-cell or culture tests; species: HIV-1; method: p24; endpoint: EC50

ECn: concentration that inhibits the pathogen or its effect by n%. a–b is a range or a potency band. Lines come from different laboratories, so protocols vary. Blank or dashed fields: not listed here.

structure | mutations | cells | strain | value
COc1ccc(-c2c(C)nc3c(N4CC[C@@H](NS(C)(=O)=O)C4)cc(C)nn23)cc1OC |  | H9 |  | 1 µM
O=C(O)c1cc(-n2cccc2)ccc1Cl |  | PBMC + MT-2 | 93BR020 X4R5 CLADE F | 4.72 µM
CC(C)C1=C2[C@H]3CC[C@@H]4[C@@]5(C)CC[C@H](OC(=O)C6C[C@@H](C(=O)O)C6(C)C)C(C)(C)[C@@H]5CC[C@@]4(C)[C@]3(C)CC[C@@]2(NC(=O)C2(NC(=O)c3cccnc3N3CCOCC3)CCC2)CC1=O | V7A | MT-4 | NL4-3 | 0.01001–0.05 µM
CCN1c2ncc(CCOc3ccc(/C=C(\C)C(=O)O)c4ccccc34)cc2C(=O)N(C)c2cccnc21 | RT-K103N Y181C | C8166 |  | <0.1 µM
CCN1c2ncc(CCOc3ccc(-c4cc(C(=O)O)c[n+]([O-])c4)cc3C)cc2C(=O)N(C)c2cccnc21 | RT-K103N Y181C | C8166 |  | >0.05 µM
CC(=O)N[C@@H]1CCN(c2cc(C)nn3c(-c4ccc5cc[nH]c5c4)c(C)nc23)C1 |  | H9 |  | 0.7 µM
CCNC(=O)N1CCn2c(nc(C(=O)NCc3ccc(F)cc3)c(O)c2=O)C1(C)C |  | MT-4 |  | <1 µM
CSc1ccc(-c2c(C)nc3c(N4CC[C@@H](NC(C)=O)C4)cc(C)nn23)cc1 |  | H9 |  | 0.2 µM
Nc1nc(NC2CC2)c2ncn([C@H]3C=C[C@@H](CO)C3)c2n1 | RT-M184V | PBMC | XM-M184V | <7 µM
CCN1c2ncc(CCOc3ccc(CCC(=O)O)c4ccccc34)cc2C(=O)N(C)c2ccc(Cl)nc21 | RT-K103N Y181C | C8166 |  | <0.1 µM
COc1ccc(S(=O)(=O)N(CC(C)C)C[C@@H](O)CCN(CC2CCCC2)S(=O)(=O)c2ccc(N)cc2)cc1 |  | CEM | IIIB | <1 µM
CC(=O)N[C@@H]1CCN(c2cc(C)nn3c(-c4cccc(N5CCOCC5)c4)c(C)nc23)C1 |  | H9 |  | 0.8 µM
CN1CCn2c(nc(C(=O)NCc3ccc(F)cc3)c(O)c2=O)C(N(C)C(=O)C(=O)N2CCCC2)C1 |  | MT-4 |  | <1 µM
Nc1ncnc2c1ncn2[C@@H]1C=C(CO)[C@@H](O)[C@H]1O |  | PBMC | A018 POST-AZT | 0.001 µM
CC(C)CN(CC(F)(F)C(=O)[C@H](Cc1ccccc1)NC(=O)O[C@H]1CCOC1)S(=O)(=O)c1ccccc1 |  | CEM | IIIB | <1 µM
Cc1ccc(C(=O)NC2(C(=O)N[C@@]34CC[C@]5(C)[C@H](CC[C@@H]6[C@@]7(C)CC[C@H](OC(=O)C8C[C@@H](C(=O)O)C8(C)C)C(C)(C)[C@@H]7CC[C@]65C)C3=C(C(C)C)C(=O)C4)CCCC2)cn1 |  | MT-4 | NL4-3 | <0.005 µM
CCN1c2ncc(CCOc3ccc(-c4cc(C(=O)O)c(C)o4)cc3)cc2C(=O)N(C)c2cccnc21 | RT-K103N Y181C | C8166 |  | >0.05 µM
CS(=O)c1ccc(-c2nc(-c3ccc(F)cc3)c(-c3ccncc3)[nH]2)cc1 |  | Jurkat cells | 89.6 | <1 µM
CCN1c2ncc(CCOc3ccc(-c4cccc(CC(=O)O)c4)cc3)cc2C(=O)N(C)c2cccnc21 | RT-K103N Y181C | C8166 |  | 0.01–0.05 µM
Cc1cccc(NC(=O)NC(C)(C)C(=O)N[C@@]23CC[C@]4(C)[C@H](CC[C@@H]5[C@@]6(C)CC[C@H](OC(=O)C7C[C@@H](C(=O)O)C7(C)C)C(C)(C)[C@@H]6CC[C@]54C)C2=C(C(C)C)C(=O)C3)n1 | V7A | MT-4 | NL4-3 | >0.05 µM
COc1ccc(-c2c(C)nc3c(N4CC[C@@H](NC(=O)Cc5ccccc5)C4)cc(C)nn23)cc1OC |  | H9 |  | 0.1 µM
CN1CCn2c(nc(C(=O)NCc3ccc(F)cc3S(C)(=O)=O)c(O)c2=O)C1(C)C |  | MT-4 |  | <1 µM
COc1ccc(S(=O)(=O)N(CC(C)C)C[C@@H](O)CCN(CC2CCCC2)S(=O)(=O)c2nc3ccccc3[nH]2)cc1 |  | CEM | IIIB | <1 µM
Nc1nccc2c1ncn2[C@@H]1C=C(CO)[C@@H](O)[C@H]1O |  | PBMC | A018 POST-AZT | 0.0048 µM
Cc1noc(C)c1C(=O)NC(C)(C)C(=O)N[C@@]12CC[C@]3(C)[C@H](CC[C@@H]4[C@@]5(C)CC[C@H](OC(=O)C6C[C@@H](C(=O)O)C6(C)C)C(C)(C)[C@@H]5CC[C@]43C)C1=C(C(C)C)C(=O)C2 | V7A | MT-4 | NL4-3 | <0.01 µM
Cc1ccc(-c2ccc3c(c2)C=C(C(=O)Nc2ccc(C[N+](C)(C)C4CCOCC4)cc2)CCC3)cc1 |  | PBMC | Du104 CLADE C | <1 µM
O=C(c1ccccc1)N(CCc1ccccc1)C[C@H](O)CN(CC1CCCC1)S(=O)(=O)c1ccc2nc[nH]c2c1 |  | CEM | IIIB | <1 µM
Cc1nnc(C(=O)N(C)C2COCCn3c2nc(C(=O)NCc2ccc(F)cc2)c(O)c3=O)o1 |  | MT-4 |  | <1 µM
CC(C)=CCOc1cc(NC(=S)c2ccsc2C)ccc1Cl |  | CEM + CEM-SS | NL4-3 | 0.006 µM
CC(C)[C@H](NC(=O)OCc1ccccn1)C(=O)N[C@@H](Cc1ccccc1)[C@@H](O)C[C@H](Cc1ccccc1)NC(=O)OCc1cccnc1 | PR-L10R M46I V82T | MT-4 | NL4-3 | <1.5 µM
CC(=O)N[C@@H]1CCN(c2cc(C)nn3c(-c4cccc(S(=O)(=O)N(C)C)c4)c(C)nc23)C1 |  | H9 |  | 0.5 µM
CCN1c2ncc(CCOc3ccc(C(=O)Nc4cccc(CC(=O)O)c4)cc3C)cc2C(=O)N(C)c2cccnc21 |  | C8166 | IIIB | 0.01–0.05 µM
CCCCCC(=O)N[C@@H]1CCN(c2cc(C)nn3c(-c4ccc(OC)c(OC)c4)c(C)nc23)C1 |  | H9 |  | 0.4 µM
CCN1c2ncc(CCOc3ccc(CCC(=O)O)c4ccccc34)cc2C(=O)Nc2c(C)cc(Cl)nc21 | RT-K103N Y181C | C8166 |  | 0.1–1 µM
Clc1cc(CN2CCCNCCNCCCNCC2)cc(Cl)n1 |  | PBMC | NL4-3 X4 | 3 µM
CCN1c2ncc(CCOc3ccc(-c4ccn(CC(=O)O)n4)cc3)cc2C(=O)N(C)c2cccnc21 | RT-K103N Y181C | C8166 |  | >0.05 µM
CC(C)CN(CCC(O)CN1CSC[C@H]1C(=O)NC(C)(C)C)S(=O)(=O)c1ccccc1 |  | CEM | IIIB | <1 µM
CCN1c2ncc(CCOc3ccc(CC(=O)O)c4ccccc34)cc2C(=O)N(C)c2ccc(Cl)nc21 |  | C8166 | WT | <0.1 µM
CC1(C)NCCn2c1nc(C(=O)NCc1ccc(F)cc1)c(O)c2=O |  | MT-4 |  | <50 µM
CCN1c2ncc(CCOc3ccc(CC(=O)O)c4ccccc34)cc2C(=O)N(C)c2cccnc21 | RT-K103N Y181C | C8166 |  | <0.1 µM
CC(=O)N1CCn2c(nc(C(=O)NCc3ccc(F)cc3)c(O)c2=O)C1(C)C |  | MT-4 |  | <1 µM
CCN1c2ncc(CCOc3ccc(NC(=O)CC4(C(=O)O)CCCC4)cc3C)cc2C(=O)N(C)c2cccnc21 |  | C8166 | IIIB | <0.01 µM
CCN1c2ncc(CCOc3ccc(CC(=O)O)c4c3CCCC4)cc2C(=O)N(C)c2ccc(F)nc21 | RT-K103N Y181C | C8166 |  | <0.1 µM
CC(C)CN(C[C@@H](O)[C@H](Cc1ccccc1)NC(=O)O[C@H]1CO[C@H]2OCC[C@H]21)S(=O)(=O)c1ccc2c(c1)OCO2 | L10F M46I I54V V82A | MT-4 | NL4-3 (LPV1) | 0.0075 µM
Nc1nc(=O)n([C@H]2C=C[C@@H](CO)O2)cc1F | RT-M184V | PBMC | RT-M184V XM-M184V | <1.3 µM
COc1ccc(S(=O)(=O)N(CC[C@@H](O)CN(CC(C)C)S(=O)(=O)c2ccc(OC)cc2)CC2CCCC2)cc1 |  | CEM | IIIB | <1 µM

4 of the rows above, restated:

| structure | mutations | cells | strain | value |
|---|---|---|---|---|
| CN1CCn2c(nc(C(=O)NCc3ccc(F)cc3)c(O)c2=O)C(N(C)C(=O)C(=O)N2CCCC2)C1 |  | MT-4 |  | <1 µM |
| CCN1c2ncc(CCOc3ccc(NC(=O)CC4(C(=O)O)CCCC4)cc3C)cc2C(=O)N(C)c2cccnc21 |  | C8166 | IIIB | <0.01 µM |
| COc1ccc(-c2c(C)nc3c(N4CC[C@@H](NC(=O)Cc5ccccc5)C4)cc(C)nn23)cc1OC |  | H9 |  | 0.1 µM |
| CC(C)CN(CC(F)(F)C(=O)[C@H](Cc1ccccc1)NC(=O)O[C@H]1CCOC1)S(=O)(=O)c1ccccc1 |  | CEM | IIIB | <1 µM |